Anti-infective test results gathered from many reports (values: NIAID ChemDB through PubChem).

Shared fields: whole-cell or culture tests; organism: Candida krusei

ECn: concentration that inhibits the pathogen or its effect by n%. Rows are shuffled and stem from different studies. A number after MIC or MFC names an inhibition level or a share of isolates. Percent inhibition refers to the dose given; in toxicity tests it is the harm to the cells. Blank or dashed fields: not listed here.

SMILES	strain or isolate	read by	endpoint	dose	result
O/N=C/c1ccc[n+](Cc2cc(C[n+]3cccc(/C=N/O)c3)on2)c1.[Br-].[Br-]		broth dilution	EC50		>20 µg/mL
COc1ccc(N2C(=O)C[C@@H](C)C2=O)cc1	CCC 117-2000	broth dilution / turbidity	MIC		62.5 µg/mL
CCCCCCCCn1cc[n+](COCCCCCCOC[n+]2ccn(CCCCCCCC)c2)c1	ATCC 6258	agar diffusion	MIC100		35 µM
CC(C)(O)c1cn(-c2cccc([N+](=O)[O-])c2)nn1	URM 4802	broth dilution	inhibition	2048 µg/mL	0%
CCCCCCCCCn1cc[n+](COCCCOC[n+]2ccn(CCCCCCCCC)c2)c1	ATCC 6258	agar diffusion	MIC100		9 µM
c1ccc(C(c2ccccc2)n2cnc3ccccc32)cc1		broth dilution	MFC		>256 µg/mL
CC(O)Cc1ccc(Cn2cc(CN3CCN([C@H](C)[C@](O)(Cn4cncn4)c4ccc(F)cc4F)CC3)c3ccccc32)cc1	ATCC 6258	resazurin	MIC80		128 µg/mL
CC1CC(=O)N(Cc2ccccc2)C1=O	CCC 117-2000	broth dilution / turbidity	MIC		125 µg/mL
O=C1OCC(c2ccccc2)=C1c1ccc(OCC(O)(Cn2cncn2)c2ccc(F)cc2F)cc1	ATCC 6258	broth dilution	MIC50		4 µg/mL
O=C(c1ccccc1)C(c1ccccc1)n1nnc2ccccc21		agar	MIC90		>256 µg/mL
OC(CNCCCOc1ccccc1)(Cn1cncn1)c1ccc(F)cc1F			EC80		<0.125 µg/mL
CCC(C)CC(C)CCCCCCCCC(=O)N[C@H]1C[C@@H](O)[C@H](NCCN)NC(=O)[C@@H]2[C@@H](O)CCN2C(=O)[C@H]([C@H](O)CCN)NC(=O)[C@H]([C@H](O)[C@@H](O)c2ccc(O)cc2)NC(=O)[C@@H]2C[C@@H](O)CN2C(=O)[C@H]([C@@H](C)O)NC1=O	ATCC 5029	broth dilution	MIC50		0.25 µg/mL
CC(C)(O)c1cn(-c2cccc3ccccc23)nn1	URM 4263	broth dilution	inhibition	2048 µg/mL	0%
Cc1ccc(-c2c3c(N)c4c(nc3nc3c2c(C)nn3-c2ccccc2)CCC4)cc1	CCC 117	broth dilution / absorbance	MIC100		125 µg/mL
O=C(c1ccccc1)C(c1ccccc1)n1cnc2ccccc21		agar	MIC90		128 µg/mL
O/N=C/c1cccc[n+]1Cc1ccc(C[n+]2ccccc2/C=N/O)s1.[Cl-].[Cl-]		broth dilution	EC50		>20 µg/mL
CCC(C)c1ccc(Cn2cc(CN3CCN([C@H](C)[C@](O)(Cn4cncn4)c4ccc(F)cc4F)CC3)c3ccccc32)cc1	ATCC 6258	resazurin	MIC80		2 µg/mL
CCOc1ccc2nc3cc(N=C4NC(=O)/C(=C\c5ccc([N+](=O)[O-])cc5)S4)ccc3c(N)c2c1		broth dilution	MFC		750 µg/mL
COc1cc(/C=C2\SC(=S)NC2=O)cc(OC)c1OCC(O)(Cn1cncn1)c1ccc(F)cc1F	ATCC 6258	broth dilution	MIC50		16 µg/mL
Cc1ccc(NC(=O)CN(C)CC(O)(Cn2cncn2)c2ccc(F)cc2F)cc1			MIC80		64 µg/mL
Cc1cc(C[n+]2cccc(C=NO)c2)on1.[Br-]		broth dilution	EC50		>20 µg/mL
CC(C)CC1NC(=O)CC(CCCCCCCCC(C)O)OC(=O)C(CC(C)C)NC(=O)C(CC(C)C)NC(=O)C(CC(C)C)NC(=O)C(C(C)C)NC(=O)C(CC(=O)O)NC(=O)C(CC(C)C)NC1=O	Clinical isolate	visual reading	MFC		2 µg/mL
C[C@@H](N1CCN(Cc2cn(Cc3ccc(F)cc3)c3c(F)cccc23)CC1)[C@](O)(Cn1cncn1)c1ccc(F)cc1F	ATCC 6258	resazurin	MIC80		1 µg/mL
COc1ccc(C=O)cc1OCC(O)(Cn1cncn1)c1ccc(F)cc1F	ATCC 6258	broth dilution	MIC50		128 µg/mL
CC(C)C(NC(=O)C(N)Cc1ccccc1)C(=O)NC(Cc1ccc(O)cc1)C(=O)O	ATCC 6258	broth dilution	MFC		701 µg/mL
C[C@@H](c1ncncc1F)[C@](O)(Cn1cncn1)c1ccc(F)cc1F		broth dilution	MIC50		0.5 µg/mL
NC(Cc1ccccc1)C(=O)CC(CC1C=Nc2ccccc21)C(=O)NC(Cc1cccc(O)c1)C(=O)O	ATCC 6258	broth dilution	MFC		764 µg/mL
CC(C)(O)c1cn(-c2ccc([N+](=O)[O-])cc2)nn1	URM 1059	broth dilution	inhibition	2048 µg/mL	0%
NC(=O)c1cc[n+](CCC[n+]2cccc(/C=N/O)c2)cc1.[Br-].[Br-]		broth dilution	EC50		>20 µg/mL
Clc1ccc(C(c2ccccc2)N2CCN(CCn3ccnc3)CC2)cc1		broth dilution	MFC		>256 µg/mL
CCCCCCCCCCn1cc[n+](COCCCCOC[n+]2ccn(CCCCCCCCCC)c2)c1	ATCC 6258	agar diffusion	MIC100		8 µM
C[C@@H](N1CCN(Cc2cn(Cc3ccc(C(F)(F)F)cc3)c3c(F)cccc23)CC1)[C@](O)(Cn1cncn1)c1ccc(F)cc1F	ATCC 6258	resazurin	MIC80		1 µg/mL
Cc1ccc(-c2c3c(N)c4c(nc3nc3c2c(C)nn3-c2ccccc2)CCCCC4)cc1	CCC 117	broth dilution / absorbance	MIC80		62.5 µg/mL
CN(CC(=O)Nc1ccc(Cl)cc1)CC(O)(Cn1cncn1)c1ccc(F)cc1F			MIC80		4 µg/mL
O/N=C/c1ccc[n+](Cc2ccc(C[n+]3cccc(/C=N/O)c3)s2)c1.[Cl-].[Cl-]		broth dilution	EC50		>20 µg/mL
COc1cc(C2=C(c3ccc(F)cc3F)COC2=O)ccc1OCC(O)(Cn1cncn1)c1ccc(F)cc1F	ATCC 6258	broth dilution	MIC50		8 µg/mL
CCCCCCCCCCn1cc[n+](COCCCOC[n+]2ccn(CCCCCCCCCC)c2)c1	ATCC 6258	agar diffusion	MIC100		32 µM
CCCCCOc1ccc(-c2cc(-c3ccc(C(=O)N[C@H]4C[C@@H](O)[C@@H](O)NC(=O)[C@@H]5[C@@H](O)[C@@H](C)CN5C(=O)[C@H]([C@H](O)CC(N)=O)NC(=O)[C@H]([C@H](O)[C@@H](O)c5ccc(O)c(OS(=O)(=O)O)c5)NC(=O)[C@@H]5C[C@@H](O)CN5C(=O)[C@H]([C@@H](C)O)NC4=O)cc3)no2)cc1		broth dilution	MIC50		0.13 µg/mL
C=CCc1ccc(O)c(OC)c1	191	turbidity	MIC90		500 µg/mL
CC1CC(=O)N(c2ccc(F)cc2F)C1=O	CCC 117-2000	broth dilution / turbidity	MIC		125 µg/mL
COc1cc(NC(C)CCCNC(=O)CC(NC(=O)[C@H](N)CCCN)C(=O)O)c2nc(C(C)(C)C)ccc2c1		broth dilution	EC50		>20 µg/mL
C[C@@H]1CC(=O)N(c2ccc([N+](=O)[O-])cc2)C1=O	CCC 117-2000	broth dilution / turbidity	MIC		62.5 µg/mL
C[C@H]1[C@H](O)[C@@H](C)/C=C/C=C/C=C/C=C/C=C/C=C/C=C/[C@H](O[C@@H]2O[C@H](C)[C@@H](O)[C@H](N)[C@@H]2O)C[C@@H]2O[C@](O)(C[C@@H](O)C[C@@H](O)CC[C@H](O)[C@@H](O)C[C@@H](O)CC(=O)O[C@H]1C)C[C@H](O)[C@H]2C(=O)O	CCC 117	broth dilution / absorbance	MIC100		0.39 µg/mL
CN(CC(=O)Nc1ccc(OC(F)(F)F)cc1)CC(O)(Cn1cncn1)c1ccc(F)cc1F			MIC80		4 µg/mL
Cc1ccc(-n2cc(C(C)(C)O)nn2)cc1C	URM 934	broth dilution	inhibition	2048 µg/mL	0%
C[C@@H](N1CCN(Cc2cn(Cc3ccc(F)cc3F)c3c(Cl)cccc23)CC1)[C@](O)(Cn1cncn1)c1ccc(F)cc1F	ATCC 6258	resazurin	MIC80		0.5 µg/mL
COc1ccc(C2=C(c3ccc(OCC(O)(Cn4cncn4)c4ccc(F)cc4F)cc3)C(=O)OC2)cc1	ATCC 6258	broth dilution	MIC50		8 µg/mL
C[C@@H](N1CCN(Cc2cn(Cc3ccc(C(F)(F)F)cc3)c3ccccc23)CC1)[C@](O)(Cn1cncn1)c1ccc(F)cc1F	ATCC 6258	resazurin	MIC80		0.5 µg/mL
CC1C(=O)N(CCCc2ccccc2)C(=O)C1C	CCC 117-2000	broth dilution / turbidity	MIC		125 µg/mL
COc1ccc(C(c2ccc(OC)cc2)n2ccnc2)cc1		agar	MIC90		>256 µg/mL
C[n+]1ccn(COCCCCOCn2cc[n+](C)c2)c1	ATCC 6258	agar diffusion	MIC100		114 µM
Cc1ccc(-c2c3c(N)c4c(nc3nc3c2c(C)nn3-c2ccccc2)CCCC4)cc1	CCC 117	broth dilution / absorbance	MIC80		15.6 µg/mL
CN(CC(=O)Nc1ccc(F)c(Cl)c1)CC(O)(Cn1cncn1)c1ccc(F)cc1F			MIC80		4 µg/mL
CC(C)C[C@H](N)C(=O)O	ATCC 6258	broth dilution	MFC100		>72000 µg/mL
C[C@@H](N1CCN(Cc2cn(Cc3ccc(Cl)cc3)c3c(F)cccc23)CC1)[C@](O)(Cn1cncn1)c1ccc(F)cc1F	ATCC 6258	resazurin	MIC80		1 µg/mL
COc1ccccc1NC(=O)CN(C)CC(O)(Cn1cncn1)c1ccc(F)cc1F			MIC80		4 µg/mL
CC(C)CC(O)C(=O)O	D 206 B	broth dilution / visual reading	MFC100		72000 µg/mL

A second listing of 3 rows from above:

SMILES | strain or isolate | read by | endpoint | dose | result
CCCCCCCCCCn1cc[n+](COCCCCOC[n+]2ccn(CCCCCCCCCC)c2)c1 | ATCC 6258 | agar diffusion | MIC100 |  | 8 µM
C[C@H]1[C@H](O)[C@@H](C)/C=C/C=C/C=C/C=C/C=C/C=C/C=C/[C@H](O[C@@H]2O[C@H](C)[C@@H](O)[C@H](N)[C@@H]2O)C[C@@H]2O[C@](O)(C[C@@H](O)C[C@@H](O)CC[C@H](O)[C@@H](O)C[C@@H](O)CC(=O)O[C@H]1C)C[C@H](O)[C@H]2C(=O)O | CCC 117 | broth dilution / absorbance | MIC100 |  | 0.39 µg/mL
c1ccc(C(c2ccccc2)n2cnc3ccccc32)cc1 |  | broth dilution | MFC |  | >256 µg/mL